Anti-infective test results gathered from many reports (values: NIAID ChemDB through PubChem).

Common to all: growth or infection tests; species: HIV-1; read-out: EC50

An empty or dashed field is not shown.

structure | changes | method | conditions | strain or isolate | cell line | result
Cc1occc1C(=S)Nc1ccc(Cl)c(/C=N/OCc2ccccc2)c1 |  | syncytia |  | IIIB | CEM | 1 µM
CCCC(C(=O)O)c1c(C)nc2ccc(Cl)cc2c1-c1cccc(Cl)c1 |  | luciferase / reporter gene |  |  | C8166 | <20 µM
CCCCCCCCCC[N+](C)(C)CCCNCc1c(O)cc2c(c1O)-c1cc(ccc1O)[C@H]1NC(=O)[C@@H]3NC(=O)C4NC(=O)[C@@H](Cc5ccc(c(Cl)c5)Oc5cc3cc(c5O)Oc3ccc(cc3Cl)[C@@H](O)[C@H](NC1=O)C(=O)N[C@@H]2C(=O)O)NC(=O)[C@H](N)c1ccc(O)c(c1)Oc1cc(O)cc4c1 |  | syncytia |  | IIIB | C8166 | 6.6 µM
CCN1C(=O)NC(=O)C(C(C)C)C1CC1CC(C)CC(C#N)C1=O |  | p24 / ELISA | 20% human serum | IIIB | C8166 | 0.00608 µM
CN1N=C(N)c2cn([C@@H]3O[C@H](COP(=O)(O)O)[C@@H](O)[C@H]3O)c3ncnc1c23 |  | cytopathic effect / XTT |  | TP1 | CEM + CEM-SS | 0.07 µM
CNC(=O)c1c(O)c2ncc(Cc3ccc(F)cc3)c3c2n(c1=O)C[C@@H](CN1CCN(S(C)(=O)=O)CC1)O3 |  | ATP / luminescence |  | IIIB | MT-2 | 0.0003 µM
Cc1nc2ccc(Cl)cc2c(-c2ccc(CCF)cc2)c1[C@H](OC(C)(C)C)C(=O)O |  | luciferase / reporter gene |  |  | C8166 | <20 µM
CCc1c(Cc2ccc(C)cc2)n(COCCCc2ccccc2)c(=O)[nH]c1=O | Y181C | MTT |  | N119 | MT-4 | >43 µM
CCCOC(C(=O)O)c1c(C)nc2ccc(Br)cc2c1-c1ccc(Cl)cc1 |  | luciferase / reporter gene |  |  | C8166 | <20 µM
CCCc1cc(=O)oc2c3c(c4c(c12)OC(C)(C)CC4)O[C@@H](C)[C@H](C)[C@@H]3O |  | RT activity |  | CLADE B | PBMC | 0.4 µM
CCc1c(Cc2ccc(C)cc2)n(COCc2ccccc2)c(=O)[nH]c1=O | Y181C | MTT |  | N119 | MT-4 | >44 µM
CC(C)[C@H](NC(=O)[C@H](Cc1ccccc1)C[C@H](O)[C@H](Cc1ccccc1)NC(=O)OC(C)(C)C)C(=O)N[C@@H](Cc1ccccc1)C(=O)N1CCOCC1 |  | RT activity |  | Z-84 | MT-2 | 0.01 µM
CCCC(C(=O)O)c1c(C)nc2ccc(Cl)cc2c1-c1ccc(C)cc1 |  | luciferase / reporter gene |  |  | C8166 | <20 µM
CC(C)[C@H](NC(=O)OCc1ccccn1)C(=O)N[C@@H](Cc1ccccc1)[C@@H](O)C[C@H](Cc1ccccc1)NC(=O)OCc1cccnc1 | PR-L10R L63P V82T | p24 |  | NL4-3 | MT-4 | <3 µM
CCCc1cc(=O)oc2c3c(c4c(c12)OC(C)(C)CC4)O[C@H](C)[C@@H](C)C3=O | RT-K103N | cytopathic effect / XTT |  |  |  | 30.6 µM
COc1ccnc2[nH]cc(C(=O)C(=O)N3CCN(C(=O)c4ccccc4)C[C@H]3C)c12 |  |  |  | JR-FL | HeLa | 0.2 µM
CCc1ccc(-c2c(C(OC(C)(C)C)C(=O)O)c(C)nc3ccc(Cl)cc23)cc1 |  | luciferase / reporter gene |  |  | C8166 | <20 µM
CCOCn1c(Cc2ccc(OC)c(OC)c2)c(CC)c(=O)[nH]c1=O | K103R/V179D/P225H | MTT |  | EFVR | MT-4 | >100 µM
CCN(CC)C(=O)[C@]1(C)Cn2c(=O)c(C(=O)NC)c(O)c3ncc(Cc4ccc(F)cc4)c(c32)O1 |  | ATP / luminescence |  | IIIB | MT-2 | 0.0132 µM
CCc1c(Cc2ccc(OC)c(OC)c2)n(COCc2ccccc2)c(=O)[nH]c1=O | Y181C | MTT |  | N119 | MT-4 | >80 µM
Nc1ccn([C@@H]2C=C(F)[C@H](CO)O2)c(=O)n1 |  | PCR |  | LAI | PBMC | <0.92 µM
CNC(=O)[C@H]1Cn2c(=O)c(C(=O)NCCOC)c(O)c3ncc(Cc4ccc(F)cc4)c(c32)O1 |  | ATP / luminescence |  | IIIB | MT-2 | 0.012 µM
CC1=C(C(=O)Nc2ccc(Cl)c(C(=O)OC(C)C)c2)SCCO1 | RT-Y188L | syncytia |  | IIIB | CEM | 15 µM
Nc1ccn([C@H]2CC[C@@H](CO)O2)c(=O)n1 | H258Q | β-galactosidase |  | NL4-3 |  | 0.381 µM
Cc1cc(C)c(Nc2nc(Nc3ccc(C#N)cc3)nc3ccsc23)c(C)c1 |  | luciferase |  |  | HeLa | <0.01 µM
CNC(=O)[C@@]1(C)Cn2c(=O)c(C(=O)NCCOC)c(O)c3ncc(Cc4ccc(F)cc4)c(c32)O1 |  | ATP / luminescence |  | IIIB | MT-2 | 0.0035 µM
Cc1cc(C#N)cc(C)c1Oc1nc(Nc2ccc(C#N)cc2)nc2ccsc12 |  | luciferase |  | Y-188L | HeLa | >0.1 µM
Cc1nc2ccc(Br)cc2c(-c2ccc(Cl)cc2)c1C(OCCCC#N)C(=O)O |  | luciferase / reporter gene |  |  | C8166 | <20 µM
CCc1c(Cc2ccc(C)cc2)n(COCCc2ccccc2)c(=O)[nH]c1=O |  | MTT |  | IIIB | MT-4 | >60 µM
COc1ccc(NC(=O)C2=C(C)OCCS2)cc1OCC=C(Cl)Cl | RT-Y181C | syncytia |  | Pyridone-resistant (RT Y181C) | CEM | 10 µg/mL
Cc1cc(C)c(Oc2nc(Nc3ccc(C#N)cc3)nc3sc4c(c23)CCCC4)c(C)c1 |  | luciferase |  | Y-188L | HeLa | >0.1 µM
Cc1sccc1C(=S)Nc1ccc(Cl)c(OCC=C(Cl)Cl)c1 | RT-Y181C | syncytia |  | Pyridone-resistant (RT Y181C) | CEM | 0.23 µg/mL
Cc1cc(C)c(Oc2nc(Nc3ccc(C#N)cc3)nc3ccsc23)c(C)c1 |  | luciferase |  | L1001-K103N | HeLa | 0.01–0.1 µM
COc1ccc(NC(=S)c2ccoc2C)cc1OCC=C(Cl)Cl | RT-V106A | syncytia |  | Nevirapine-resistant isolate (RT V106A) | CEM | 0.077 µg/mL
CCc1c(Cc2ccccc2)n(COCCc2ccccc2)c(=O)[nH]c1=O | Y181C | MTT |  | N119 | MT-4 | >43 µM
Cc1occc1C(=S)Nc1ccc(Cl)c(SCC=C(Cl)Cl)c1 | RT-V106A | syncytia |  | Nevirapine-resistant isolate (RT V106A) | CEM | 0.025 µg/mL
CCc1c(Cc2ccccc2)n(COCC2CC2)c(=O)[nH]c1=O | K103R/V179D/P225H | MTT |  | EFVR | MT-4 | >100 µM
CC(C)=CCOc1cc(NC(=S)c2ccoc2C)ccc1Cl |  | syncytia |  | IIIB | CEM | 0.009 µM
COC(C(=O)O)c1c(C)nc2ccc(Cl)cc2c1-c1ccc2c(c1)CCO2 |  | luciferase / reporter gene |  |  | C8166 | <20 µM

The last 6 rows once more:

structure | changes | method | conditions | strain or isolate | cell line | result
COc1ccc(NC(=S)c2ccoc2C)cc1OCC=C(Cl)Cl | RT-V106A | syncytia |  | Nevirapine-resistant isolate (RT V106A) | CEM | 0.077 µg/mL
CCc1c(Cc2ccccc2)n(COCCc2ccccc2)c(=O)[nH]c1=O | Y181C | MTT |  | N119 | MT-4 | >43 µM
Cc1occc1C(=S)Nc1ccc(Cl)c(SCC=C(Cl)Cl)c1 | RT-V106A | syncytia |  | Nevirapine-resistant isolate (RT V106A) | CEM | 0.025 µg/mL
CCc1c(Cc2ccccc2)n(COCC2CC2)c(=O)[nH]c1=O | K103R/V179D/P225H | MTT |  | EFVR | MT-4 | >100 µM
CC(C)=CCOc1cc(NC(=S)c2ccoc2C)ccc1Cl |  | syncytia |  | IIIB | CEM | 0.009 µM
COC(C(=O)O)c1c(C)nc2ccc(Cl)cc2c1-c1ccc2c(c1)CCO2 |  | luciferase / reporter gene |  |  | C8166 | <20 µM

a–b is a range or a potency band. Conditions beyond the fields shown may differ between rows. ECn is the concentration giving n% inhibition of infection, replication or growth.